Anti-infective test results gathered from many reports (values: NIAID ChemDB through PubChem).

Common to all: target-level tests; agent: HIV-1; target: Protease; measure: IC50

ICn: concentration for n% inhibition. Conditions beyond the fields shown may differ between rows. An empty or dashed field is not shown.

structure	read by	setting	value
CC(C)(C)NC(=O)[C@@H]1CCCN1C(=O)[C@@H](O)[C@H](Cc1ccccc1)NC(=O)[C@H](CC(N)=O)NC(=O)OCc1ccccc1	substrate cleavage		0.02 µM
CC(C)(C)OC(=O)N[C@@H](CO)C(=O)N[C@@H](Cc1ccccc1)[C@H](O)C(=O)NCC1CCCCC1			<1000 µM
CC1(C)CC[C@]2(C(=O)O)CC[C@]3(C)C(=CCC4[C@@]5(C)CC[C@H](OC(=O)CC(=O)O)C(C)(C)C5CC[C@]43C)C2C1	HPLC		8 µM
CC(C)C[C@@H](C=O)NC(=O)[C@@H](N)CC(C)C	HPLC		<1000 µM
CC(C)(C)NC(=O)[C@@H]1CC2CCCCC2N1C(=O)[C@@H](O)[C@H](Cc1ccccc1)NC(=O)[C@H](CS(C)(=O)=O)NC(=O)COc1cccc2ccccc12			>0.05 µM
COC(=O)CCCOc1ccc2ccc(OCCCC(=O)N[C@H](C(=O)N[C@@H](CC(C)C)C(=O)N[C@H](C(=O)OC)C(C)C)[C@@H](C)O)cc2c1	fluorescence		>4.5 µM
CC(C[C@H]1OC(C)(C)O[C@@H]1C(C)(C)O)[C@@H]1CC[C@]2(C)C3=CCC4C(C)(C)C(=O)C[C@]4(C)C3CC[C@@]12C	substrate cleavage / fluorescence		>100 µM
CC(C)(C)OC(=O)N[C@@H](Cc1ccccc1)[C@H](O)CNC[C@@H](O)[C@H](Cc1ccccc1)NC(=O)C(C)(C)C	HPLC	pH 5.5	<10 µM
CC(C[C@@H](O)[C@H](O)C(C)(C)O)[C@@H]1CC[C@]2(C)C3=CCC4C(C)(C)C(=O)CC[C@]4(C)C3CC[C@@]12C	substrate cleavage / fluorescence		>100 µM
CC(C)(C)NC(=O)[C@H]1N(C(=O)[C@@H](O)[C@H](Cc2ccccc2)NC(=O)[C@H](CC(N)=O)NC(=O)COc2cccc(-c3ccccc3)c2)CSC1(C)C			<0.05 µM
CC(C)(C)OC(=O)N[C@@H](Cc1ccccc1)[C@H](O)CNC[C@@H](O)[C@H](Cc1ccccc1)NC(=O)OC1CCc2ccccc21	HPLC	pH 5.5	<10 µM
CC(=O)O[C@H](CC(C)[C@@H]1CC[C@]2(C)C3=CCC4C(C)(C)C(=O)CC[C@]4(C)C3CC[C@@]12C)[C@H](OC(C)=O)C(C)(C)OC(C)=O	substrate cleavage / fluorescence		>100 µM
CSCC[C@H](NC(=O)[C@H](CO)N(Cc1ccccc1)C(=O)[C@H](CC(C)C)NC(=O)OCC1c2ccccc2-c2ccccc21)C(=O)NC(C)(C)C	HPLC		1.01 µM
COC(=O)[C@]12CC[C@@H](C)[C@H](C)[C@H]1C1=CC[C@@H]3[C@@]4(C)CC[C@H](O)C(C)(C)[C@@H]4CC[C@@]3(C)[C@]1(C)CC2	HPLC		14 µM
CSCC[C@H](NC(=O)[C@H](CO)N(Cc1ccccc1)C(=O)[C@H](Cc1ccccc1)NC(=O)OCC1c2ccccc2-c2ccccc21)C(=O)NC(C)(C)C	HPLC		1.17 µM
COC(=O)CCCC(=O)O[C@H]1CC[C@@]2(C)C(CC[C@]3(C)C2CC=C2C4[C@@H](C)[C@H](C)CC[C@]4(C(=O)OC)CC[C@]23C)C1(C)C	HPLC		>50 µM
CSCC[C@H](NC(=O)[C@H](CO)N(Cc1ccccc1)C(=O)[C@H](CC(C)C)NC(=O)OCc1ccccc1)C(=O)NC(C)(C)C	HPLC		0.98 µM
CC(C)(C)OC(=O)N[C@@H](Cc1ccccc1)[C@H](O)CNC[C@@H](O)[C@H](Cc1ccccc1)NC(=O)O[C@@H]1CCc2ccccc21	HPLC	pH 5.5	<10 µM
CSCC[C@H](NC(=O)[C@H](CCO)N(Cc1ccccc1)C(=O)[C@H](Cc1ccccc1)NC(=O)OC1c2ccccc2-c2ccccc21)C(=O)NC(C)(C)C	HPLC		0.297 µM
CC(C)[C@H](NC(=O)COc1cccc2ccccc12)C(=O)N[C@@H](Cc1ccccc1)[C@H](O)C(=O)N1CSC[C@H]1C(=O)NC(C)(C)C			<0.05 µM
CC[C@H](C)[C@@H](NC(=O)[C@@H](C[C@H](O)[C@H](CC(C)C)NC(=O)[C@H](Cc1cnc[nH]1)NC(=O)[C@H](Cc1ccccc1)NC(=O)[C@@H]1CCCN1C(=O)[C@@H](N)Cc1cnc[nH]1)C(C)C)C(=O)N[C@@H](Cc1cnc[nH]1)C(=O)O	HPLC	pH 7.0	0.025 µM
CC[C@H](C)[C@@H](C=O)NC(=O)[C@H](CO)NC(=O)[C@H](Cc1ccc(O)cc1)NC(=O)[C@H](CCC(=O)O)NC(=O)[C@H](CC(C)C)NC(=O)[C@@H](N)CC(C)C	HPLC		0.02 µM
Oc1cc(O)cc(/C=C/c2ccc(O)c(O)c2)c1	FRET		59 µM
CC1(C)CC[C@]2(C(=O)O)CC[C@]3(C)C(=CCC4[C@@]5(C)CC[C@H](OC(=O)C(=O)O)C(C)(C)C5CC[C@]43C)C2C1	HPLC		20 µM
CO[C@@H]([C@@H](CC(C)[C@@H]1CC[C@]2(C)C3=CCC4C(C)(C)C(OC(=O)CC(C)(C)CC(=O)O)CC[C@]4(C)C3CC[C@@]12C)OC(C)(C)C)C(C)(C)O	substrate cleavage / fluorescence		>100 µM
C=C(C)[C@@H]1CC[C@]2(C(=O)O)CC[C@]3(C)[C@H](CC[C@@H]4[C@@]5(C)CC[C@H](OC(=O)CC(=O)O)C(C)(C)C5CC[C@]43C)[C@@H]12	HPLC		6 µM
CC(C[C@@H](OC(=O)CC(C)(C)C(=O)O)[C@H](OC(=O)CC(C)(C)C(=O)O)C(C)(C)O)[C@@H]1CC[C@]2(C)C3=CCC4C(C)(C)C(=O)CC[C@]4(C)C3CC[C@@]12C	substrate cleavage / fluorescence		>100 µM
CC[C@@H](C)[C@H](NC(=O)CN(CC1CCCCC1)C(=O)[C@H](O)[C@H](Cc1ccccc1)NC(=O)[C@H](CC(N)=O)NC(=O)OC(C)(C)C)C(=O)NCC1CCCCC1			>1000 µM
C=C(C)[C@@H]1CC[C@]2(C(=O)O)CC[C@]3(C)[C@H](CC[C@@H]4[C@@]5(C)CC[C@H](OC(=O)CCCC(=O)O)C(C)(C)[C@@H]5CC[C@]43C)[C@@H]12	HPLC		4 µM
CC(C)C[C@H](NC(=O)C(NC(=O)[C@@H](N)C(C)C)c1cc(O)cc(O)c1)C(=O)N[C@@H](Cc1ccccc1)C(=O)C(=O)N[C@H](C(=O)N[C@H](C(=O)N[C@@H](CC(=O)O)C(=O)O)C(C)C)C(C)C	HPLC		0.037 µM
CSCC[C@H](NC(=O)[C@H](CO)NCc1ccccc1)C(=O)NC(C)(C)C	HPLC		3.7 µM
CC(C)(C)CNC(=O)[C@@H]1CCCN1C(=O)[C@@H](O)[C@H](Cc1ccccc1)NC(=O)[C@H](CC(N)=O)NC(=O)OCc1ccccc1			<5 µM
COC(=O)CCCC(=O)O[C@H]1CC[C@@]2(C)C(CC[C@]3(C)C2CC=C2C4CC(C)(C)CC[C@]4(C(=O)OC)CC[C@]23C)C1(C)C	HPLC		>50 µM
CC(C)C[C@H](NC(=O)[C@@H](N)CC(C)C)C(=O)N[C@@H](CCC(=O)O)C(=O)N[C@H](C=O)Cc1ccc(O)cc1	HPLC		5.1 µM
CC(C)CN(C[C@@H](O)[C@H](Cc1ccccc1)NC(=O)[C@@H](NC(=O)C1CCCN1)C(C)(C)C)S(=O)(=O)c1ccc2c(c1)OCO2			0.002 µM
CC(C)(C)NC(=O)[C@@H]1CSCN1C(=O)[C@@H](O)[C@H](Cc1ccccc1)NC(=O)[C@@H](NC(=O)COc1cccc2ccccc12)c1ccccc1			~0.05 µM
CO[C@@H]([C@@H](CC(C)[C@@H]1CC[C@]2(C)C3=CCC4C(C)(C)C(O)CC[C@]4(C)C3CC[C@@]12C)OC(C)(C)C)C(C)(C)O	substrate cleavage / fluorescence		>100 µM

The first 5 rows once more:

structure	read by	setting	value
CC(C)(C)NC(=O)[C@@H]1CCCN1C(=O)[C@@H](O)[C@H](Cc1ccccc1)NC(=O)[C@H](CC(N)=O)NC(=O)OCc1ccccc1	substrate cleavage		0.02 µM
CC(C)(C)OC(=O)N[C@@H](CO)C(=O)N[C@@H](Cc1ccccc1)[C@H](O)C(=O)NCC1CCCCC1			<1000 µM
CC1(C)CC[C@]2(C(=O)O)CC[C@]3(C)C(=CCC4[C@@]5(C)CC[C@H](OC(=O)CC(=O)O)C(C)(C)C5CC[C@]43C)C2C1	HPLC		8 µM
CC(C)C[C@@H](C=O)NC(=O)[C@@H](N)CC(C)C	HPLC		<1000 µM
CC(C)(C)NC(=O)[C@@H]1CC2CCCCC2N1C(=O)[C@@H](O)[C@H](Cc1ccccc1)NC(=O)[C@H](CS(C)(=O)=O)NC(=O)COc1cccc2ccccc12			>0.05 µM